# Measured values from ChEMBL document CHEMBL1649198, “Efflux unbalance in Pseudomonas aeruginosa isolates from cystic fibrosis patients” (2009).
# Tested on: Pseudomonas aeruginosa
# Settings: isolate 2804
sequence,measurement,value
GENTAMICIN,MIC,0.5 µg/mL
